Assay results reported in patent US6689782B2, “Fungal efflux pump inhibitors” (priority 2001, dated 2004).

How the values were obtained:
[1] = system: Candida albicans YEM15 (over-expressing the CDR1 and CDR2 pumps); test: checkerboard assay / broth microdilution, potentiation of fluconazole vs. C. albicans; conditions: 48 h
[2] = system: C. glabrata YEM19 (over-expressing the CgCDR1 and CgCDR2 pumps); test: checkerboard assay / broth microdilution, potentiation of fluconazole vs. C. glabrata; conditions: Nakaseomyces glabratus, 48 h

For COc1ccc(N(C(=O)Nc2ccc(F)cc2)C(C)c2nc3ccc(Cl)cc3c(=O)n2N2CCN(C(=O)[C@@H](NC(=O)OC(C)(C)C)[C@H](C)O)CC2)c(OC)c1 (mixture of isomers) [Compound 269], the MIC [1] was > 32 µg/mL and the MIC [2] was > 32 µg/mL.
In the case of COC(=O)N[C@@H](C)C(=O)N1CCN(n2c([C@H](C)N(C(=O)Nc3ccc(F)cc3)c3ccc(OC)cc3OC)nc3cc(F)ccc3c2=O)CC1 [Compound 367], the MIC [1] is reported as > 32 µg/mL.
COc1ccc(N(C(=O)Nc2ccc(F)cc2)C(C)c2nc3ccc(Cl)cc3c(=O)n2N2CCN(C(=O)C(C)(C)NC(=O)OC(C)(C)C)CC2)c(OC)c1 (racemic) [Compound 339] was tested, and the MIC [1] was > 32 µg/mL.
For COC(=O)N1CCC[C@H]1C(=O)N1CCN(n2c(C(C)N(C(=O)Nc3ccc(F)cc3)c3ccc(OC)cc3OC)nc3ccccc3c2=O)CC1 (stereo partly drawn) [Compound 244], the MIC [1] was > 32 µg/mL.
COC(=O)NC(C)(C)C(=O)N1CCN(n2c(C(C)N(C(=O)Nc3ccc(F)cc3)c3ccc(OC)cc3OC)nc3ccccc3c2=O)CC1 (racemic) [Compound 337] was tested, and the MIC [1] was > 32 µg/mL.
In the case of COC(=O)N[C@@H](C)C(=O)N1CCN(n2c([C@H](C)N(C(=O)Nc3ccc(F)cc3)c3ccc(OC)cc3OC)nc3ccc(F)cc3c2=O)CC1 [Compound 365], the MIC [1] is reported as > 32 µg/mL.
For COc1ccc(N(C(=O)Nc2ccc(F)cc2)[C@@H](C)c2nc3ccccc3c(=O)n2N2CCN(C(=O)[C@@H](NC(=O)OC(C)(C)C)[C@H](C)O)CC2)c(OC)c1 [Compound 360], the MIC [1] was > 32 µg/mL.
COc1ccc(N(C(=O)Nc2ccc(C#N)cc2)C(C)c2nc3cc(F)ccc3c(=O)n2N2CCN(C)CC2)c(OC)c1 (stereo not drawn) [Compound 217] was tested, and the MIC [1] was > 32 µg/mL.
For COc1ccc(N(C(=O)Nc2ccc(F)cc2)C(C)c2nc3ccccc3c(=O)n2N2CCN(C(=O)C(C)(C)NC(=O)OC(C)(C)C)CC2)c(OC)c1 (racemic) [Compound 341], the MIC [1] was > 32 µg/mL.
In the case of COc1ccc(N(C(=O)Nc2ccc(F)cc2)[C@@H](C)c2nc3cc(Cl)ccc3c(=O)n2N2CCN(C(=O)[C@@H]3CCCN3)CC2)c(OC)c1 [Compound 357], the MIC [1] is reported as > 32 µg/mL.
For COC(=O)N[C@@H](C)C(=O)N1CCN(n2c([C@H](C)N(C(=O)Nc3ccc(F)cc3)c3ccc(OC)cc3OC)nc3ccc(Cl)cc3c2=O)CC1 [Compound 364], the MIC [1] was > 32 µg/mL.
In the case of COC(=O)NC(C)(C)C(=O)N1CCN(n2c([C@H](C)N(C(=O)Nc3ccc(F)cc3)c3ccc(OC)cc3OC)nc3ccc(F)cc3c2=O)CC1 [Compound 370], the MIC [1] is reported as > 32 µg/mL.
In the case of COc1ccc(N(C(=O)Nc2ccc(F)cc2)[C@@H](C)c2nc3cc(Cl)ccc3c(=O)n2N2CCN(C(=O)[C@H](C)N)CC2)c(OC)c1 [Compound 362], the MIC [1] is reported as > 32 µg/mL.
COC(=O)N[C@H](C(=O)N1CCN(n2c([C@H](C)N(C(=O)Nc3ccc(F)cc3)c3ccc(OC)cc3OC)nc3ccc(Cl)cc3c2=O)CC1)[C@@H](C)O [Compound 358] was tested, and the MIC [1] was > 32 µg/mL.
For COC(=O)N[C@H](C(=O)N1CCN(n2c([C@H](C)N(C(=O)Nc3ccc(F)cc3)c3ccc(OC)cc3OC)nc3cc(Cl)ccc3c2=O)CC1)[C@@H](C)O [Compound 359], the MIC [1] was > 32 µg/mL.
In the case of COc1ccc(N(C(=O)Nc2ccc(F)cc2)[C@@H](C)c2nc3ccccc3c(=O)n2N2CCN(c3nncs3)CC2)c(OC)c1 [Compound 355], the MIC [1] is reported as > 32 µg/mL.
With CCOc1ccccc1N(C(=O)Nc1ccc(F)cc1)C(C)c1nc2ccccc2c(=O)n1N1CCN(C(=O)C2CC2)CC1 (stereo not drawn) [Compound 353] the MIC [1] was > 32 µg/mL.
In the case of COC(=O)N[C@@H](C)C(=O)N1CCN(n2c([C@H](C)N(C(=O)Nc3ccc(F)cc3)c3ccc(OC)cc3OC)nc3cc(Cl)ccc3c2=O)CC1 [Compound 366], the MIC [1] is reported as > 32 µg/mL.
For COc1ccc(N(C(=O)Nc2ccc(C#N)cc2)C(C)c2nc3cc(F)c(F)cc3c(=O)n2N2CCN(C)CC2)c(OC)c1 (stereo not drawn) [Compound 226], the MIC [1] was > 32 µg/mL.
For COc1ccc(N(C(=O)Nc2ccc(F)cc2)C(C)c2nc3cc(F)c(F)cc3c(=O)n2N2CCN(C(=O)C(C)(C)NC(=O)OC(C)(C)C)CC2)c(OC)c1 (racemic) [Compound 338], the MIC [1] was > 32 µg/mL.
With CC[C@H](N)C(=O)N1CCN(n2c(C(C)N(C(=O)Nc3ccc(F)cc3)c3ccc(OC)cc3OC)nc3cc(F)c(F)cc3c2=O)CC1 (stereo partly drawn) [Compound 280] the MIC [1] was > 32 µg/mL.
For CC[C@H](NC(=O)OC)C(=O)N1CCN(n2c([C@H](C)N(C(=O)Nc3ccc(F)cc3)c3ccc(OC)cc3OC)nc3ccccc3c2=O)CC1 [Compound 361], the MIC [1] was > 32 µg/mL.
For COc1ccc(N(C(=O)Nc2ccc(F)cc2)C(C)c2nc3ccccc3c(=O)n2N2CCN(C(=O)c3ccno3)CC2)c(OC)c1 (stereo not drawn) [Compound 257], the MIC [1] was > 32 µg/mL.
COc1ccc(N(C(=O)Nc2ccc(F)cc2)C(C)c2nc3ccccc3c(=O)n2N2CCN(C(=O)[C@H](Cc3c[nH]cn3)NC(=O)OC(C)(C)C)CC2)c(OC)c1 (mixture of isomers) [Compound 274] was tested, and the MIC [2] was > 32 µg/mL.
In the case of CC(c1nc2ccccc2c(=O)n1N1CCN(C(=O)C2CC2)CC1)N(C(=O)Nc1ccc(F)cc1)c1ccccc1OCC1CC1 (racemic) [Compound 352], the MIC [1] is reported as > 32 µg/mL.
In the case of COC(=O)NC(C)(C)C(=O)N1CCN(n2c([C@H](C)N(C(=O)Nc3ccc(F)cc3)c3ccc(OC)cc3OC)nc3cc(F)ccc3c2=O)CC1 [Compound 372], the MIC [1] is reported as > 32 µg/mL.
COc1ccc(N(C(=O)Nc2ccc(F)cc2)C(C)c2nc3ccccc3c(=O)n2N2CCN(C=O)CC2)c(OC)c1 (stereo not drawn) [Compound 230] was tested, and the MIC [1] was > 32 µg/mL.
COC(=O)NC(C)(C)C(=O)N1CCN(n2c([C@H](C)N(C(=O)Nc3ccc(F)cc3)c3ccc(OC)cc3OC)nc3ccccc3c2=O)CC1 [Compound 373] was tested, and the MIC [1] was > 32 µg/mL.
COc1ccc(N(C(=O)Nc2ccc(F)cc2)C(C)c2nc3ccccc3c(=O)n2N2CCN(C(=O)C(C)(C)N)CC2)c(OC)c1 (racemic) [Compound 330] was tested, and the MIC [2] was > 32 µg/mL.
With COC(=O)N1CCC[C@H]1C(=O)N1CCN(n2c([C@H](C)N(C(=O)Nc3ccc(F)cc3)c3ccc(OC)cc3OC)nc3ccccc3c2=O)CC1 [Compound 356] the MIC [1] was > 32 µg/mL.
For CC[C@H](N)C(=O)N1CCN(n2c(C(C)N(C(=O)Nc3ccc(F)cc3)c3ccc(OC)cc3OC)nc3ccccc3c2=O)CC1 (mixture of isomers) [Compound 284], the MIC [2] was > 32 µg/mL.
With COc1ccc(N(C(=O)Nc2cccc(F)c2)C(C)c2nc3cc(F)c(F)cc3c(=O)n2N2CCN(C)CC2)c(OC)c1 (stereo not drawn) [Compound 221] the MIC [1] was > 32 µg/mL.
With COc1ccc(N(C(=O)Nc2cccc(F)c2)C(C)c2nc3cc(Cl)ccc3c(=O)n2N2CCN(C)CC2)c(OC)c1 (racemic) [Compound 223] the MIC [2] was 32 µg/mL.
For COC(=O)NC1CCN(C(=O)N2CCN(n3c(C(C)N(C(=O)Nc4ccc(F)cc4)c4ccc(OCC5CC5)cc4OCC4CC4)nc4ccccc4c3=O)CC2)C1 (racemic) [Compound 343], the MIC [1] was > 32 µg/mL.
In the case of COc1ccc(N(C(=O)Nc2ccc(C#N)cc2)C(C)c2nc3cc(Cl)ccc3c(=O)n2N2CCN(C)CC2)c(OC)c1 (racemic) [Compound 227], the MIC [2] is reported as > 32 µg/mL.
COC(=O)NC1CCN(C(=O)N2CCN(n3c(C(C)N(C(=O)Nc4ccc(F)cc4)c4cccc(-n5nccn5)c4)nc4ccccc4c3=O)CC2)C1 (racemic) [Compound 342] was tested, and the MIC [1] was > 32 µg/mL.
COC(=O)NC(C)(C)C(=O)N1CCN(n2c([C@H](C)N(C(=O)Nc3ccc(F)cc3)c3ccc(OC)cc3OC)nc3cc(Cl)ccc3c2=O)CC1 [Compound 371] was tested, and the MIC [1] was > 32 µg/mL.
With COc1ccc(N(C(=O)Nc2ccc(F)cc2)C(C)c2nc3cc(F)ccc3c(=O)n2N2CCN(C(=O)[C@H](C)N)CC2)c(OC)c1 (stereo partly drawn) [Compound 305] the MIC [1] was > 32 µg/mL.
COc1ccc(N(C(=O)Nc2cccc(Cl)c2)C(C)c2nc3cc(Cl)ccc3c(=O)n2N2CCN(C)CC2)c(OC)c1 (racemic) [Compound 222] gave an MIC [2] of 16 µg/mL.
For COC(=O)N[C@@H](CCS(C)(=O)=O)C(=O)N1CCN(n2c(C(C)N(C(=O)Nc3ccc(F)cc3)c3ccc(OC)cc3OC)nc3ccccc3c2=O)CC1 (mixture of isomers) [Compound 276], the MIC [2] was > 32 µg/mL.
In the case of COc1ccc(N(C(=O)Nc2ccc3c(c2)OCO3)C(C)c2nc3cc(F)ccc3c(=O)n2N2CCN(C)CC2)c(OC)c1 (stereo not drawn) [Compound 219], the MIC [1] is reported as > 32 µg/mL.
With COc1ccc(N(C(=O)Nc2ccc(F)cc2)C(C)c2nc3cc(F)c(F)cc3c(=O)n2N2CCN(C(=O)[C@H](C)N)CC2)c(OC)c1 (stereo partly drawn) [Compound 302] the MIC [1] was > 32 µg/mL.
With COc1ccc(N(C(=O)Nc2ccc(F)cc2)C(C)c2nc3ccccc3c(=O)n2N2CCN(C(=O)c3cc(C)on3)CC2)c(OC)c1 (stereo not drawn) [Compound 252] the MIC [1] was > 32 µg/mL.
With COc1ccc(N(C(=O)Nc2ccc(F)cc2)C(C)c2nc3cc(Cl)ccc3c(=O)n2N2CCN(C(=O)C(C)(C)NC(=O)OC(C)(C)C)CC2)c(OC)c1 (racemic) [Compound 340] the MIC [1] was > 32 µg/mL.
COc1cc(F)ccc1N(C(=O)Nc1ccc(F)cc1)C(C)c1nc2ccccc2c(=O)n1N1CCN(C(=O)C2CC2)CC1 (stereo not drawn) [Compound 350] was tested, and the MIC [1] was > 32 µg/mL.
For COC(=O)N[C@@H](C)C(=O)N1CCN(n2c(C(C)N(C(=O)Nc3ccc(F)cc3)c3cccc(-n4nccn4)c3)nc3ccccc3c2=O)CC1 (mixture of isomers) [Compound 349], the MIC [1] was > 32 µg/mL.
For COc1ccc(N(C(=O)Nc2ccc(F)cc2)[C@@H](C)c2nc3ccc(Cl)cc3c(=O)n2N2CCN(C(=O)C(C)(C)N)CC2)c(OC)c1 [Compound 369], the MIC [1] was > 32 µg/mL.
COc1ccc(N(C(=O)Nc2ccc(OC(F)F)cc2)C(C)c2nc3cc(F)ccc3c(=O)n2N2CCN(C)CC2)c(OC)c1 (stereo not drawn) [Compound 218] was tested, and the MIC [1] was > 32 µg/mL.
For COc1ccc(N(C(=O)Nc2ccc(F)cc2)C(C)c2nc3cc(F)c(F)cc3c(=O)n2N2CCN(C(=O)C(C)(C)N)CC2)c(OC)c1 (stereo not drawn) [Compound 326], the MIC [2] was > 32 µg/mL.
COC(=O)N[C@@H](C)C(=O)N1CCN(n2c([C@H](C)N(C(=O)Nc3ccc(F)cc3)c3ccc(OC)cc3OC)nc3cc(F)c(F)cc3c2=O)CC1 [Compound 363] was tested, and the MIC [1] was > 32 µg/mL.
With COc1ccc(N(C(=O)Nc2ccc(F)cc2)C(C)c2nc3ccccc3c(=O)n2N2CCN(C(=O)[C@H](CCS(C)(=O)=O)NC(=O)C(F)F)CC2)c(OC)c1 (mixture of isomers) [Compound 277] the MIC [2] was > 32 µg/mL.
In the case of COC(=O)N[C@@H]1CCN(C(=O)N2CCN(n3c(C(C)N(C(=O)Nc4ccc(F)cc4)c4ccc(OC)cc4OC)nc4ccccc4c3=O)CC2)C1 (mixture of isomers) [Compound 235], the MIC [2] is reported as > 32 µg/mL.
COC(=O)N[C@@H]1CCN(C(=O)N2CCN(n3c(C(C)N(C(=O)Nc4ccc(F)cc4)c4ccc(OC)cc4OC)nc4cc(F)c(F)cc4c3=O)CC2)C1 (mixture of isomers) [Compound 236] was tested, and the MIC [2] was > 32 µg/mL.
